Read-outs that look alike come from different tables or passages of the source.
Assays:
hPC7 = hPC7 (Homo sapiens, UniProt Q16549); assay: Specificity for furin-like PCs: hPC7 inhibition; details: read-out: IC50 hPC7, Table S2
Protocol: (§1) Inhibition of furin and hPC1/3 activity was measured in triplicate on Corning 3676 black 384-well assay plates by using a total volume of 20 µL and the following buffer conditions: 100 mM Hepes, 2 mM CaCl2, pH = 7.5. Pyr-RTKR-AMC (Peptide Institute, Inc., Osaka, Japan; catalog # 3159-v) was used as fluorescent substrate at 7 µM, while the furin concentration was 80 nM per reaction well. The steady-state rate of substrate hydrolysis was monitored continuously (excitation/emission wavelengths at 365/460 nm) at 25 °C using a VictorTMX5 plate reader (PerkinElmer, Waltham, MA, USA). Inhibition of trypsin from bovine pancreas was measured in triplicate on Corning 3676 black 384-well assay plates using a total volume of 20 µL and the following buffer conditions: 100 mM Hepes, 2 mM CaCl2, pH = 7.5. Pyr-RTKR-AMC (Peptide Institute, Inc., catalog # 3159-v) was used as fluorescent substrate at 7 µM, while the trypsin concentration was 10 nM per reaction well. Data analysis and curve fitting for all the enzymatic assays were performed using GraphPad Prism (version 4 for Windows, La Jolla, USA). Peptides and compound 1 were synthesized using standard solid phase peptide chemistry procedures and purified using HPLC at 95% purity (Figures S1 and S8; Supplementary Materials). Camostat (mesylate) was purchased from Cayman Chemicals (Ann Arbor, USA).

Chains of the proteins cited; added tags and fusions are not shown. Residues count along the entry.
UniProt Q16549, 142-785 limits assumed: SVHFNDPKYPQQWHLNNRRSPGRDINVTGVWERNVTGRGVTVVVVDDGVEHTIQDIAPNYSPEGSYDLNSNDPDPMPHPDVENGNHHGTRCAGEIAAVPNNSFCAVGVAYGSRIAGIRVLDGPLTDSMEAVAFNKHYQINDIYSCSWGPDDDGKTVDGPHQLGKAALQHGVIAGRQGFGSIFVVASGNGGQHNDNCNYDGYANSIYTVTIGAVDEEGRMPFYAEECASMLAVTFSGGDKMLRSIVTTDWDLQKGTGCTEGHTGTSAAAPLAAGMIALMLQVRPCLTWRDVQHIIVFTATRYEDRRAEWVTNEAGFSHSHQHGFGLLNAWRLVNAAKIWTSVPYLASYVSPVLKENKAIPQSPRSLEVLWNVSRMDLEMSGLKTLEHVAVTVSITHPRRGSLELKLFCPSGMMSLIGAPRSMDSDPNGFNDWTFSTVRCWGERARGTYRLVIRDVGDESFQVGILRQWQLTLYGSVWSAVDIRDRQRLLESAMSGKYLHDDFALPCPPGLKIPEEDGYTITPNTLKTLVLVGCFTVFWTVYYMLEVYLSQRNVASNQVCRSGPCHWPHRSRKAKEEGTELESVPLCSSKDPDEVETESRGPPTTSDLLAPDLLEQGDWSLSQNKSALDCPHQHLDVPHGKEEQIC
UniProt P09958, 108-794 limits assumed: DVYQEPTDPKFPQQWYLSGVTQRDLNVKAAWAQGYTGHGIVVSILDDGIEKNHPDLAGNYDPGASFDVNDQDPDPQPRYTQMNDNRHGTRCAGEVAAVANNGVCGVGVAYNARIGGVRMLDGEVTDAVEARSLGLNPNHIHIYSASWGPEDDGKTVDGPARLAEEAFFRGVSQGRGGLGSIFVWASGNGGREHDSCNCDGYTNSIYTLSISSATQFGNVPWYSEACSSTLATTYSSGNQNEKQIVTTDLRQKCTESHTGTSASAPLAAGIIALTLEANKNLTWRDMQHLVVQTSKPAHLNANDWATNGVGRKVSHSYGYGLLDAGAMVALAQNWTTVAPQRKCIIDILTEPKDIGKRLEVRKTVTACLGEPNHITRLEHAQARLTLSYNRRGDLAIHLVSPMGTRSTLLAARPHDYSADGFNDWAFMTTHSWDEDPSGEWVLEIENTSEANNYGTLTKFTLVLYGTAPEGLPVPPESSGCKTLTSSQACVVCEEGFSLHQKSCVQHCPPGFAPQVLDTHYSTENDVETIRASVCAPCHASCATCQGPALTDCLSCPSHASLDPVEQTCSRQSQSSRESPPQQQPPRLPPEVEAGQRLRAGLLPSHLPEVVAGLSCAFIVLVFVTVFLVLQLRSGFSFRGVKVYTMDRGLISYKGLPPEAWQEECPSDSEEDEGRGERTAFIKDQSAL
UniProt P29120, 111-753 limits assumed: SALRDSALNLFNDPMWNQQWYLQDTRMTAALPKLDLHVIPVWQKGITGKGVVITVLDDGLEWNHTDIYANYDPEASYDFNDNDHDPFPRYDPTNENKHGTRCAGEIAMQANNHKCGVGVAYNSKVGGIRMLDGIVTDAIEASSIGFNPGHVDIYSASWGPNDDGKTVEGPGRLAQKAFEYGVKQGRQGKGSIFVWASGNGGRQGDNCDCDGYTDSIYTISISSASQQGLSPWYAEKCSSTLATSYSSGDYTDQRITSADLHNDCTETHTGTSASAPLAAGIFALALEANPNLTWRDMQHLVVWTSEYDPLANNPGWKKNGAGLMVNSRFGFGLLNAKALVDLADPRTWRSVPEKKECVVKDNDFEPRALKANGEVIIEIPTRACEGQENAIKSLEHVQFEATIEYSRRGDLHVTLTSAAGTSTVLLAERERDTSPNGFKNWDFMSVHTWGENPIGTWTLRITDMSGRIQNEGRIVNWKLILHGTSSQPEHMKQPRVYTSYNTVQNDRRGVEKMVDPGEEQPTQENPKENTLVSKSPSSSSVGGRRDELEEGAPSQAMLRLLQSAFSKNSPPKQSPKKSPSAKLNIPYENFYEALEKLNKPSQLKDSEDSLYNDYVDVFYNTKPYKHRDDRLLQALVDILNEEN
UniProt P16519, 110-638 limits assumed: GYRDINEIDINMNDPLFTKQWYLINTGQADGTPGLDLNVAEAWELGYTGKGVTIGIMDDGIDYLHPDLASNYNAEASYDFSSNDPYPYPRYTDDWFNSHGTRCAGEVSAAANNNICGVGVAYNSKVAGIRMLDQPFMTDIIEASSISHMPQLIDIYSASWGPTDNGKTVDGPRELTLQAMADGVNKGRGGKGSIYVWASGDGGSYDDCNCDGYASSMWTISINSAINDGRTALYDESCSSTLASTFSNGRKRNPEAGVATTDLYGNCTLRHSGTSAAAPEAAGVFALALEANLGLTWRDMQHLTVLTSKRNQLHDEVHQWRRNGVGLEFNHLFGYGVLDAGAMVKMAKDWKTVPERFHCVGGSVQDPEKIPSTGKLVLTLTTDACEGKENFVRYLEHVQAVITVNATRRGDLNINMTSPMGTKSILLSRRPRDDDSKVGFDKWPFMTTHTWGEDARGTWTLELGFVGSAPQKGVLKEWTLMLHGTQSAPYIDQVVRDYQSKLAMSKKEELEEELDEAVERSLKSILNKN

furin = furin (Homo sapiens, UniProt P09958); assay: Inhibition of furin activity, fluorescent substrate Pyr-RTKR-AMC; details: read-out: IC50 Furin, Table S2
Protocol: as §1

hPC1/3 = hPC1/3 (Homo sapiens, UniProt P29120); assay: Inhibition of hPC1/3 activity, fluorescent substrate Pyr-RTKR-AMC; details: read-out: IC50 hPC1/3, Table S2
Protocol: as §1

hPC2 = hPC2 (Homo sapiens, UniProt P16519); assay: Specificity for furin-like PCs: hPC2 inhibition; details: read-out: IC50 hPC2, Table S2
Protocol: as §1

Row | Compound | IC50 (hPC7; tested form: TFA or HCl) [nM] | IC50 (furin; tested form: TFA or HCl) [nM] | IC50 (hPC1/3; tested form: TFA or HCl) [nM] | IC50 (hPC2; tested form: TFA or HCl) [nM] | IC50 (hPC7) [nM] | IC50 (furin) [nM] | IC50 (hPC1/3) [nM] | IC50 (hPC2) [nM]
1 | CC(=O)N[C@@H](Cc1ccc(NC(=N)N)cc1)C(=O)N[C@H](C(=O)N[C@@H](CCCNC(=N)N)C(=O)NCc1ccc(C(=N)N)cc1)C(C)C | 4050 | 279 | 49 | 2050 |  |  |  | 
2 | CC(C)[C@H](NS(=O)(=O)Cc1ccc(C(=N)N)cc1)C(=O)N[C@@H](Cc1ccc(NC(=N)N)cc1)C(=O)NCc1ccc(C(=N)N)cc1 |  |  |  |  | 14000 | 12700 | 483 | > 30000
3 | CC(C)[C@H](NS(=O)(=O)Cc1ccc(C(=N)N)cc1)C(=O)N[C@@H](CCCNC(=N)N)C(=O)NCc1ccc(C(=N)N)cc1 |  |  |  |  | 3190 | 338 | 14 | 1170
